## Primary screen of a compound library

From ChEMBL document CHEMBL3988442, “University of Dundee, Small-Polar-MMV Screening Library” (2021).

Mtb cholesterol medium: 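Growth of Mycobacterium tuberculosis over 4 days (cholesterol / DPPC medium with tyloxapol); the read-out is not stated. Tested at 50 µM. Direction is inferred from retests: higher values go with more growth inhibition. Of about 69,000 compounds tested this way, about 370 (0.54%) reached 50% or more in at least one test.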
Mtb glucose medium: 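Phenotypic screen: M. tuberculosis growth, glucose 7H9 medium, 3 days; the read-out is not stated. Concentration: 50 µM. The record gives no direction; compounds that gave an IC50 in retests scored well above the rest, so higher reads as more growth inhibition. About 69,000 compounds were tested under these conditions; 1.1% (about 760) showed 50% or more at least once.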

Values are the deposited “Percent Effect”, in %.
The record does not define 0% and 100%; most values in the screen are far below 50% and negative numbers occur (in some assays of this library far below -100).
This is part of a subset picked to be rich in strong results.
Two or more numbers in one place are separate tests of the same structure; such repeats can differ widely.
A dash means the value is not listed here; it may have been measured.

{"smiles": "CSCCC1c2nc[nH]c2CCN1Cc1ccccc1C(F)(F)F", "stereo": "configuration not stated", "Mtb glucose medium": 18.5}
{"smiles": "Cn1ccnc1CN1CCC2(CC1)CN(c1cncnc1)C(=O)CO2.O=C(O)C(F)(F)F", "Mtb glucose medium": -18.54}
{"smiles": "CN(Cc1ccccc1)C(=O)CCN1C[C@H](C2CC2)[C@@H](N(C)C)C1", "Mtb glucose medium": "-31.97 and -1.381"}
{"smiles": "Cc1nccn1C1CCCN(C(=O)c2ccc(N3CCCC3)nn2)C1", "stereo": "configuration not stated", "Mtb glucose medium": 78.28}
{"smiles": "COCCNc1nc2c(c(NCCc3cccs3)n1)CCNCC2", "Mtb glucose medium": 51.03}
{"smiles": "c1ccc(-c2nc3c(c(NCCCn4cncn4)n2)CCNCC3)nc1", "Mtb glucose medium": -19.32}
{"smiles": "CN1N=C(C(=O)N2CCCC(CCc3c(F)cccc3F)C2)CCC1=O", "stereo": "configuration not stated", "Mtb cholesterol medium": 12.86, "Mtb glucose medium": 17.83}
{"smiles": "N#Cc1ncn(CCC(=O)Nc2ccccc2F)n1", "Mtb cholesterol medium": 1.699}
{"smiles": "Cc1nccc(-c2cccc(-c3ccn(CC4CCNC4)n3)c2)n1", "stereo": "configuration not stated", "Mtb cholesterol medium": 6.051, "Mtb glucose medium": 14.04}
{"smiles": "COc1cc(OC)cc(-c2noc(CC(N)c3ccccc3)n2)c1", "stereo": "configuration not stated", "Mtb glucose medium": "14.5 and 3.972"}
{"smiles": "CCC(Nc1nnnn1-c1ccccc1)C(=O)NCc1ccsc1", "stereo": "configuration not stated", "Mtb cholesterol medium": -7.701, "Mtb glucose medium": 40.93}
{"smiles": "CSCC(C)(O)CNc1cccc(F)c1C#N", "stereo": "configuration not stated", "Mtb cholesterol medium": 5.769, "Mtb glucose medium": -9.115}
{"smiles": "Cc1ccc(NC(=O)NCC2(N3CCOCC3)CCSC2)c(C)c1", "stereo": "configuration not stated", "Mtb glucose medium": "-7.728 and -10.93"}
{"smiles": "C[C@@H]1CN(c2nc3c(cc2C(N)=O)CCC3)C[C@]1(C)O", "Mtb glucose medium": "12.88 and -3.604"}
{"smiles": "Cc1cnc(NC(=O)c2csc(NC3CCCC3)n2)s1", "Mtb glucose medium": "69.97 and -0.8215"}
{"smiles": "Cc1ccc(N2CCCC3(CCCC(=O)N3)C2)nn1.O=C(O)C(F)(F)F", "stereo": "configuration not stated", "Mtb cholesterol medium": 13.95}
{"smiles": "CC(C)CCN1Cc2c(C(=O)O)ncn2-c2ccccc2S1(=O)=O", "Mtb cholesterol medium": 93.66}
{"smiles": "COc1cc(CN2CCC(COCc3ccccc3)CC2)cc(OC)c1", "Mtb cholesterol medium": 10.02, "Mtb glucose medium": 23.82}
{"smiles": "FC(F)(F)Sc1ccc(NCc2nnc(C3CC3)o2)cc1", "Mtb cholesterol medium": 52.15, "Mtb glucose medium": 39.15}
{"smiles": "COc1ncccc1C(=O)NC1CCOc2ccccc21", "stereo": "configuration not stated", "Mtb glucose medium": -6.081}
{"smiles": "CCNc1cc2c(nn1)CCN(C(=O)C1COc3ccccc3C1)C2", "stereo": "configuration not stated", "Mtb cholesterol medium": 50.13, "Mtb glucose medium": 54.14}
{"smiles": "Cc1ccc(NC(C)C(=O)NCc2cccs2)cc1Cl", "stereo": "configuration not stated", "Mtb cholesterol medium": "51.57 and 62.38"}
{"smiles": "CCOCc1nnc(NCc2ccsc2)o1", "Mtb cholesterol medium": 36.64, "Mtb glucose medium": 60.68}
{"smiles": "COc1ncccc1CNC(=O)c1cnccn1", "Mtb cholesterol medium": 6.576, "Mtb glucose medium": -16.76}
{"smiles": "COCCNC(=O)Nc1cccc(COCCOC(C)C)c1", "Mtb glucose medium": "-0.4188 and 10.95"}
{"smiles": "Cc1nnc(SCc2ccccn2)s1", "Mtb cholesterol medium": -6.518, "Mtb glucose medium": -4.862}
{"smiles": "Cc1cc(S(=O)(=O)NC(C)(C)CN)c(F)cc1F.Cl", "Mtb glucose medium": 14.54}
{"smiles": "c1ccc2sc(CN3CCOC(Cn4cncn4)C3)nc2c1", "stereo": "configuration not stated", "Mtb cholesterol medium": 15.05}
{"smiles": "Cc1nc(C2CCCN2Cc2cc(Cl)c3c(c2)OCCCO3)no1", "stereo": "configuration not stated", "Mtb cholesterol medium": 45.56, "Mtb glucose medium": 56.52}
{"smiles": "Cc1ccc(N2CCc3c(CN(C)Cc4ccco4)cncc3C2)nn1.Cl.Cl", "Mtb glucose medium": 52.5}
{"smiles": "CCn1c(C2CCN(C(=O)c3cc(C4CC4)on3)CC2)nn(C)c1=O", "Mtb glucose medium": 13.85}
{"smiles": "Cc1ccc(CNC(=O)Nc2nccs2)cn1", "Mtb glucose medium": 2.206}
{"smiles": "CN(C)c1cc(C2CCCN2C(=O)c2noc3c2CCCC3)ccn1", "stereo": "configuration not stated", "Mtb cholesterol medium": -5.549, "Mtb glucose medium": -0.1032}
{"smiles": "CC(C)n1ccnc1C1CCN(Cc2ccc(Cl)c(F)c2)CC1", "Mtb glucose medium": 2.397}
{"smiles": "COc1ccc(F)c(CN2CCCC3(CCN(C4CCOCC4)C3)C2)c1", "stereo": "configuration not stated", "Mtb glucose medium": "69.69 and 58.01"}
{"smiles": "CN(C)C(C(=O)N1CCC(CCO)CC1)c1ccccc1F", "stereo": "configuration not stated", "Mtb cholesterol medium": -37.66}
{"smiles": "Cc1nc2c(c(N(C)C)n1)CCN(C(=O)CN1CCC(O)CC1)C2", "Mtb cholesterol medium": -5.632}
{"smiles": "O=C1N(Cc2ccc(F)c(F)c2)CCCC1(O)CNCc1cccnc1", "stereo": "configuration not stated", "Mtb glucose medium": -3.921}
{"smiles": "CSc1ncccc1C(=O)NCCC(O)c1cc(C)oc1C", "stereo": "configuration not stated", "Mtb glucose medium": "18.95 and -4.452"}
{"smiles": "O=C(C1CC2(CCNCC2)CN1)N1CCN(c2cccc(Cl)c2Cl)CC1", "stereo": "configuration not stated", "Mtb glucose medium": 50.08}
{"smiles": "COc1ccc(C(C)NCCC(N)=O)cc1F", "stereo": "configuration not stated", "Mtb cholesterol medium": -5.91, "Mtb glucose medium": -6.949}
{"smiles": "CC(C(N)=O)n1nc(-c2cccs2)cc(N)c1=O", "stereo": "configuration not stated", "Mtb glucose medium": 7.542}

4 of the entries, repeated:

SMILES,Mtb cholesterol medium,Mtb glucose medium
Cc1ccc(CNC(=O)Nc2nccs2)cn1,-,2.206
Cc1nccn1C1CCCN(C(=O)c2ccc(N3CCCC3)nn2)C1 (configuration not stated),-,78.28
CCOCc1nnc(NCc2ccsc2)o1,36.64,60.68
CN(C)C(C(=O)N1CCC(CCO)CC1)c1ccccc1F (configuration not stated),-37.66,-